Test results taken from patent US20060094693A1, “Methods and compositions for treating glucose-associated conditions, metabolic syndrome, dyslipidemias and other conditions” (Point Therapeutics, Inc., priority 2004, published 2006).

Amino acid sequences for entries named in this document (tags omitted). Residues count along the entry.
UniProt P14740, 37-767 limits assumed: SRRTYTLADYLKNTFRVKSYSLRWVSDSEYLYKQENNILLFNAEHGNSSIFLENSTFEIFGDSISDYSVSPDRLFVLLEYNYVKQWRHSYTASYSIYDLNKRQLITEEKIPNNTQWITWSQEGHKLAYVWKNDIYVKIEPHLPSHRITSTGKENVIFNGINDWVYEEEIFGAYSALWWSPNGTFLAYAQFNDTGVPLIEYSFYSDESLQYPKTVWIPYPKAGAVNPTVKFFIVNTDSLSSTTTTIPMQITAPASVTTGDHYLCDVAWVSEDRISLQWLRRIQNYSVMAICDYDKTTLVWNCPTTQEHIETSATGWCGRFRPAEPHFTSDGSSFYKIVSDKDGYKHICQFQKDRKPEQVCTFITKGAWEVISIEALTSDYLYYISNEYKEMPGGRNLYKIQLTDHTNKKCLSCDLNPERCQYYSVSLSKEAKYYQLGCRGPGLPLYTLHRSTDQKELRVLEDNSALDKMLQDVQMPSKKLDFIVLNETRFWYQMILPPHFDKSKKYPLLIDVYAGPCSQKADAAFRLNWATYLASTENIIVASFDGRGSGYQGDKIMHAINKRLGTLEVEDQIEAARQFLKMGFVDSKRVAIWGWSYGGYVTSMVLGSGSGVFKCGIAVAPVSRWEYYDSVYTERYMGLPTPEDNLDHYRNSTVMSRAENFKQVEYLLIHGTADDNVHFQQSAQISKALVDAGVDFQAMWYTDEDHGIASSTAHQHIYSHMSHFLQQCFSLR

Molecular target: T1, serum DPP-IV (Rattus norvegicus, UniProt P14740)
T1 construct: from tissue; host or cells: serum of Lewis rats dosed with the compounds
Test: Serum DPP-IV inhibition in Lewis rats
Assay type: in vivo
Conditions: ratio of ID50 values
Description: Assay of serum DPP-IV inhibition in vivo. Varying doses (0.02, 0.2, 2.0, 20.0 μg/mouse) of Glu-boroPro dissolved in normal saline or the saline vehicle alone were administered to BALB/c mice by oral gavage. Each mouse received a single administration of Glu-boroPro or saline, and blood samples were withdrawn from mice 2 hours later. […]. DPP-IV activity was determined by reaction of 10 μl serum with 90 μl of 0.11 mM Ala-Pro-AFC (Enzyme System Products, Dublin, Calif.) in 50 mM HEPES/Na buffer pH 7.6, 140 mM NaCl. Assays were incubated for 30 minutes, stopped and fluorometric measurements made as described in Example 1. […].

## N[C@@H](CCC(=O)O)C(=O)N1CCC[C@H]1B(O)O [Glu-boroPro, glutamic acid boroproline]
  potency as inhibitor of serum DPP-IV, less potent than Val-boroPro: ~10 fold
